Results of unrelated studies side by side (data: NIAID ChemDB).

Common to all: whole-cell or culture tests; agent: HIV-1; method: MTT; endpoint: EC50

ECn: concentration that inhibits the pathogen or its effect by n%. Lines come from different laboratories, so protocols vary. Blank or dashed fields: not listed here.

structure	strain or isolate	cells	mutations	value
CCCS(=O)(=O)NC(=O)c1[nH]c2ccc(Cl)cc2c1S(=O)(=O)c1cc(C)cc(C)c1		MT-4	F227L + V106A	3.53 µM
CCC(O)(c1cccc(C)c1)c1c(C)c(=O)[nH]c(=O)n1COCc1ccccc1	IIIB	MT-4		>154 µM
Cc1cc(/C=C/C#N)cc(C)c1Oc1ccnc(Nc2ccc(CN3CCN(S(=O)(=O)N(C)C)CC3)cc2)n1		MT-4	L100I	0.029 µM
C=C(C)COCn1c(Cc2cccc(F)c2)c(CC)c(=O)[nH]c1=O	EFV-resistant (K103R V179D P225H)	MT-4		>100 µM
Fc1ccc(Nc2ncc(Cc3c(F)cccc3F)o2)cc1	IIIB	MT-2		0.47 µM
Cc1nc2c(c(C)c(C)n2Cc2cccs2)c(-c2ccc(Cl)cc2)c1[C@H](OC(C)(C)C)C(=O)O	IIIB	MT-4		0.02615 µM
Clc1cccc(Cl)c1Cc1nnc(Nc2ccc(COCc3ccncc3)cc2)o1	IIIB	MT-2		2.3 µM
Cc1ccc2sn(/N=C/c3ccc(O)cc3)c(=O)c2c1		MT-4		>23 µM
Cc1cc(C)cc(S(=O)(=O)c2c(C(=O)NS(=O)(=O)c3ccccc3)[nH]c3ccc(Cl)cc23)c1		MT-4	K103N	3.43 µM
Cc1cc(/C=C/C#N)cc(C)c1Oc1nc(NC2CCN(Cc3cccc(Br)c3)CC2)nc2ccsc12	RES056	MT-4		0.216 µM
Cc1ccc2sn(/N=C/c3ccccc3[N+](=O)[O-])c(=O)c2c1		MT-4	EFV-resistant (K103 V179D P225H)	>100 µM
CC(C)c1c(Cc2ccccc2)n(COCCOc2ccccc2)c(=O)[nH]c1=O	N119	MT-4	Y181C	>35 µM
Cc1cc(-c2ccc(C#N)cc2)cc(C)c1Oc1ccnc(S(=O)(=O)CC(=O)Nc2ccc(Cl)cc2)n1	RES056	MT-4		4.209 µM
CC(C)c1c(C(C)c2ccc(F)cc2)n(COCc2ccccc2)c(=O)[nH]c1=O	IIIB	MT-4		3.91 µM
CCc1ccc(Nc2ncc(Cc3c(Cl)cccc3Cl)o2)cc1	IIIB	MT-2		2.8 µM
C=C(C)COCn1c(Cc2cc(F)ccc2F)c(CC)c(=O)[nH]c1=O	EFV-resistant (K103R V179D P225H)	MT-4		>56 µM
Cc1cc(C#N)cc(C)c1Oc1nc(Nc2ccc(C#N)cc2)ncc1SCC(=O)NCc1ccc(O)cc1		MT-4	Y188L	0.0963 µM
CCc1c(Cc2cc(C)cc(C)c2)n(COCCc2ccccc2)c(=O)[nH]c1=O	A17	MT-4	K103N/Y181C	>41 µM
CCOP(=O)(OCC)C(N[C@@H](Cc1ccccc1)[C@H](O)CN(CC(C)C)S(=O)(=O)c1ccc(OC)cc1)C(C)C	IIIB	MT-4		>11.52 µg/mL
Cc1cc(C#N)cc(C)c1Oc1ccnc(S(=O)(=O)CC(=O)Nc2ccc(C#N)cc2)n1	IIIB	MT-4	Y181C	0.017 µM
Cc1nc2c(c(C)c(C)n2C)c(-c2ccc(Cl)cc2)c1[C@@H](OC(C)(C)C)C(=O)O	IIIB	MT-4		>99 µM
CCOC(=O)c1nnsc1Nc1ccccc1Nc1snnc1C(=O)OCC	IIIB	MT-4		17 µM
Cc1cccc(Cn2c(C)c(C)c3c(-c4ccc(Cl)cc4)c(C(OC(C)(C)C)C(=O)O)c(C)nc32)n1	IIIB	MT-4		0.125 µM
C=CCOCn1c(Cc2cc(F)ccc2F)c(CC)c(=O)[nH]c1=O	EFV-resistant (K103R V179D P225H)	MT-4		70 µM
Cc1cc(/C=C/C#N)cc(C)c1Oc1nc(NC2CCN(Cc3ccc([N+](=O)[O-])cc3)CC2)nc2ccsc12	RES056	MT-4		0.111 µM
Cc1cc(-c2ccc(C#N)cc2)cc(C)c1Oc1ccnc(S(=O)(=O)CC(=O)Nc2ccc(Br)cc2)n1	IIIB	MT-4	Y188L	0.977 µM
COc1nc(N(C)C)nc(Cc2c(F)cccc2F)c1C	IIIB	MT-4	Y181C	>67 µM
CCc1c(Cc2ccccc2)n(COCCOc2ccccc2)c(=O)[nH]c1=O	A17	MT-4	K103N + Y181C	>32 µM
Cc1cc(C#N)cc(C)c1Oc1nc(Nc2ccc(C#N)cc2)ncc1SCC(=O)Nc1ccc(S(C)(=O)=O)cc1		MT-4	L100I	0.0965 µM
Cc1ccc2sn(/N=C/c3ccc4c(c3)OCO4)c(=O)c2c1		MT-4		33 µM
COC(=O)[C@H](C)NC(O)(Oc1ccccc1)Oc1nc(N(C)C)nc(C(C)c2c(F)cccc2F)c1C		MT-4	Y181C resistant	1.2 µM
CCc1c(Cc2cc(C)cc(C)c2)n(COCCCc2ccccc2)c(=O)[nH]c1=O	A17	MT-4	K103N/Y181C	>43 µM
Cc1c(C(C)c2c(F)cccc2F)nc(N(C)C)[nH]c1=O	IIIB	C8166	EFV-resistant (K103R V179D P225H)	>100 µM
Nc1ccn([C@@H]2CS[C@H](CO)O2)c(=O)n1	IIIB	MT-4	Y181C	2.4 µM
COc1cc(/C=N/n2sc3ccc(C)cc3c2=O)ccc1O		MT-4	Y181C	>16 µM
CCc1c(Cc2ccc(OC)c(OC)c2)n(COCCCc2ccccc2)c(=O)[nH]c1=O	A17	MT-4	K103N/Y181C	>38 µM
Cc1cc(C)cc(S(=O)(=O)c2c(C(=O)NS(=O)(=O)C(F)(F)F)[nH]c3ccc(Cl)cc23)c1	IIIB	MT-4		2.95 µM
CCc1c(Cc2ccc(OC)c(OC)c2)n(COCCc2ccccc2)c(=O)[nH]c1=O	IIIB	MT-4		>73 µM
Cc1ccc2sn(/N=C/c3cccc(O)c3)c(=O)c2c1		MT-4	Y181C	>16 µM
Cc1ccccc1CN1CCC(Nc2nc(Oc3c(C)cc(/C=C/C#N)cc3C)c3sccc3n2)CC1	IIIB	MT-4	NNRTI-resistant (RT E138K)	0.128 µM
N#Cc1ccc(Nc2nc(Oc3ccc(-c4ccc(C#N)cc4)c(F)c3F)c3sccc3n2)cc1	IIIB	MT-4	L100I	0.052 µM
CC(c1nnc(Nc2ccc(C#N)cc2)o1)c1c(F)cccc1F	IIIB	MT-2		0.13 µM
Cc1cc(-c2ccc(C#N)cc2)cc(Cl)c1Oc1nc(Nc2ccc(C#N)cc2)nc2ccsc12	IIIB	MT-4	Y188L	0.1075 µM
Cc1c(C(C)(O)c2cccc(F)c2)n(COCc2ccccc2)c(=O)[nH]c1=O	IIIB	MT-4		46.23 µM
Cc1cc(C#N)cc(C)c1Oc1nc(NC2CCC(NCc3ccc(F)cc3)CC2)nc2ccsc12	IIIB	MT-4	NNRTI-resistant (RT Y188L)	>2.77 µM
Cc1cc(C#N)cc(C)c1Oc1nc(Nc2ccc(C#N)cc2)ncc1SCC(=O)NC1CCN(C(=O)OC(C)(C)C)CC1		MT-4	L100I	0.0553 µM
Cc1cc(/C=C/C#N)cc(C)c1Oc1ccnc(S(=O)(=O)CC(=O)Nc2ccc(Cl)cc2)n1	IIIB	MT-4	Y188L	0.494 µM
Cc1cc(C)cc(S(=O)(=O)c2c(C(=O)NS(=O)(=O)c3ccc(F)cc3)[nH]c3ccc(Cl)cc23)c1	RES056	MT-4		>121 µM
CCc1c(Cc2ccccc2)n(COCC2CC2)c(=O)[nH]c1=O	EFVR	MT-4	K103R/V179D/P225H	>100 µM
COc1cc(C(C#N)c2c(F)cccc2F)nc(N(C)C)n1	IIIB	C8166	EFV-resistant (K103R V179D P225H)	>40 µM
COc1cc(Cc2c(C(C)C)c(=O)[nH]c(=O)n2COCCOc2ccccc2)cc(OC)c1	IIIB	MT-4		0.35 µM
CCc1c(Cc2ccc(OC)c(OC)c2)n(COCc2ccccc2)c(=O)[nH]c1=O	A17	MT-4	K103N/Y181C	>80 µM
CCOCn1c(Cc2cc(C(F)(F)F)cc(C(F)(F)F)c2)c(CC)c(=O)[nH]c1=O	N119 (Y181C)	MT-4		80 µM
Cc1ccc2sn(/N=C/c3ccc([N+](=O)[O-])cc3[N+](=O)[O-])c(=O)c2c1		MT-4	Y181C	>100 µM
Cc1c(C(O)c2c(F)cccc2F)nc(N(C)C)[nH]c1=O	IIIB	MT-4	K103N + Y181C	>50 µM
CCOP(=O)(OCC)C(N[C@@H](Cc1ccccc1)[C@H](O)CN(CC(C)C)S(=O)(=O)c1ccc(OC)cc1)c1ccc([N+](=O)[O-])cc1	IIIB	MT-4		>14.24 µg/mL
Cc1ccc2sn(/N=C/c3ccccc3Cl)c(=O)c2c1		MT-4	Y181C	>100 µM
N#Cc1ccc(Nc2nc(Oc3c(F)cc(-c4ccc(C#N)cc4)cc3F)c3sccc3n2)cc1	IIIB	MT-4	L100I	0.0478 µM
Cc1cc(/C=C/C#N)cc(C)c1Oc1nc(NC2CCN(Cc3ccncc3)CC2)nc2ccsc12	RES056	MT-4		0.0294 µM
Cc1cn([C@H]2C[C@H](N=[N+]=[N-])[C@@H](CO)O2)c(=O)[nH]c1=O	Clinical isolate	MT-4		0.0168 µg/mL
Cc1nc2c(c(C)c(C)n2C(C)C)c(-c2ccc(Cl)cc2)c1C(OC(C)(C)C)C(=O)O	IIIB	MT-4		0.079 µM
C=CCNC(=O)CSc1cnc(Nc2ccc(C#N)cc2)nc1Oc1c(C)cc(C#N)cc1C		MT-4	K103N	0.0025 µM
Cc1nc2c(c(C)c(C)n2CCF)c(-c2ccc(Cl)cc2)c1[C@H](OC(C)(C)C)C(=O)O	IIIB	MT-4		0.00582 µM
COc1ccc(/C=N/n2sc3ccc(C)cc3c2=O)cc1		MT-4		>55 µM
Cc1nc2c(c(C)c(C)n2CC2CCCCC2)c(-c2ccc(Cl)cc2)c1[C@H](OC(C)(C)C)C(=O)O	IIIB	MT-4		0.1448 µM
C#CCNC(=O)CSc1cnc(Nc2ccc(C#N)cc2)nc1Oc1c(C)cc(C#N)cc1C		MT-4	E138K	0.0071 µM
CCOP(=O)(OCC)C(N[C@@H](Cc1ccccc1)[C@H](O)CN(CC(C)C)S(=O)(=O)c1ccc(OC)cc1)c1ccccc1	ROD	MT-4		>13.25 µg/mL
O=c1c2ccccc2sn1/N=C/c1ccc(O)c(O)c1		MT-4	EFV-resistant (K103 V179D P225H)	>44 µM
CCOP(=O)(N[C@@H](Cc1ccccc1)[C@H](O)CN(CC(C)C)S(=O)(=O)c1ccc(OC)cc1)OCC	IIIB	MT-4		>7.77 µg/mL
Cc1cc(C#N)cc(C)c1Oc1nc(Nc2ccc(C#N)cc2)ncc1SCC(N)=O		MT-4	Y188L	0.08 µM
Cc1c(C(C)(O)c2cccc(C(F)(F)F)c2)n(COCc2ccccc2)c(=O)[nH]c1=O	IIIB	MT-4		>38.4 µM
CCOP(=O)(OCC)C(N[C@@H](Cc1ccccc1)[C@@H](O)CN(CC(C)C)S(=O)(=O)c1ccc(OC)cc1)c1ccc(C)cc1	IIIB	MT-4		>4.94 µg/mL
Cc1cc(/C=C/C#N)cc(C)c1Oc1nc(NC2CCN(Cc3cccc(F)c3)CC2)nc2ccsc12	IIIB	MT-4	NNRTI-resistant (RT E138K)	0.0316 µM
C=C(c1ccc(C)cc1)c1c(C(C)C)c(=O)[nH]c(=O)n1COCc1ccccc1	IIIB	MT-4		4.09 µM
N#Cc1ccc(Nc2nnc(Nc3c(Cl)cccc3Cl)o2)cc1	IIIB	MT-2		9.8 µM
COCCNC(=O)CSc1cnc(Nc2ccc(C#N)cc2)nc1Oc1c(C)cc(C#N)cc1C		MT-4	L100I	0.018 µM
CCOCn1c(Cc2cc(F)ccc2F)c(CC)c(=O)[nH]c1=O	N119 (Y181C)	MT-4		11 µM
C=C(c1cc(OC)cc(OC)c1)c1c(C)c(=O)[nH]c(=O)n1COCc1ccccc1	IIIB	MT-4	K103N	34.96 µM
Cc1ccc(Nc2ncc(Cc3c(F)cccc3F)o2)cc1	IIIB	MT-2		0.9 µM
Cc1ccnc2c1NC(=O)c1cccnc1N2C1CC1	IIIB	MT-4	E138K	0.16 µM
C=C(c1cccc2ccccc12)c1c(C)c(=O)[nH]c(=O)n1COCc1ccccc1	IIIB	MT-4		>30.97 µM
CCOCn1c(Cc2ccccc2)c(C(C)C)c(=O)[nH]c1=O	N119 (Y181C)	MT-4		>20 µM
COc1cccc(OC)c1C(=O)c1nc(N(C)C)nc(OC)c1C	IIIB	C8166	EFV-resistant (K103R V179D P225H)	>8 µM
Cc1cc(C#N)cc(C)c1Oc1nc(Nc2ccc(C#N)cc2)ncc1SCC(=O)NC1CC1		MT-4	K103N	0.0022 µM
CCOCn1c(Cc2ccc(C)cc2)c(CC)c(=O)[nH]c1=O	N119	MT-4	Y181C	>100 µM
Cc1cc(C)cc(S(=O)(=O)c2c(C(=O)NS(=O)(=O)c3ccc(F)cc3F)[nH]c3ccc(Cl)cc23)c1		MT-4	Y181C	5.33 µM
CN(c1nnc(Nc2ccc(C#N)cc2)o1)c1c(Cl)cccc1Cl	IIIB	MT-2		0.27 µM
Cc1cc(-c2ccc(C#N)cc2)cc(C)c1Oc1ccnc(S(=O)(=O)C(C)C(=O)Nc2ccc(Cl)cc2)n1	RES056	MT-4		3.294 µM
CCc1c(Cc2cc(C)cc(C)c2)n(COCCOc2ccccc2)c(=O)[nH]c1=O	IIIB	MT-4	Efavirenz-resistant (K103R + V179D + P225H)	11 µM

A second listing of 6 rows from above:

structure | strain or isolate | cells | mutations | value
Cc1ccc2sn(/N=C/c3ccccc3Cl)c(=O)c2c1 |  | MT-4 | Y181C | >100 µM
N#Cc1ccc(Nc2nnc(Nc3c(Cl)cccc3Cl)o2)cc1 | IIIB | MT-2 |  | 9.8 µM
Cc1cc(C#N)cc(C)c1Oc1nc(Nc2ccc(C#N)cc2)ncc1SCC(N)=O |  | MT-4 | Y188L | 0.08 µM
CCOCn1c(Cc2ccccc2)c(C(C)C)c(=O)[nH]c1=O | N119 (Y181C) | MT-4 |  | >20 µM
Cc1cc(C#N)cc(C)c1Oc1nc(NC2CCC(NCc3ccc(F)cc3)CC2)nc2ccsc12 | IIIB | MT-4 | NNRTI-resistant (RT Y188L) | >2.77 µM
CCOP(=O)(OCC)C(N[C@@H](Cc1ccccc1)[C@H](O)CN(CC(C)C)S(=O)(=O)c1ccc(OC)cc1)c1ccc([N+](=O)[O-])cc1 | IIIB | MT-4 |  | >14.24 µg/mL